Pooled drug test results. Numbers come from NIAID ChemDB, via PubChem.

Common to all: tests in culture; organism: HIV-1; endpoint: fold resistance

Blank or dashed fields: not listed here. Neighbouring rows are from separate reports. Fold resistance: result on the changed form divided by that on wild type.

structure	strain	changes	cells	read by	result
Cc1ccnc2c1NC(=O)c1cccnc1N2C1CC1	NL4-3	RT-L74V	CEM + CEM-SS	XTT	1
Cc1cccc(C)c1OCC(=O)N[C@@H](Cc1ccccc1)[C@H](O)CN1CC[C@@H](Sc2ccncc2)C[C@H]1C(=O)NC(C)(C)C	BILA2185-resistant (PR I84V)	PR-I84V	C8166	p24	5.5
O=C(O)P(=O)(O)O	HX88C (RT-W88C)	RT-W88C	HT4LACZ-1 + HT4 LacZ-1	-	1.7
Nc1ccn([C@H]2CC[C@@H](CO)O2)c(=O)n1	RTMC (RT D67N K70R T215F K219Q)	RT-D67N K70R T215F K219Q	HT4 + HT4 LacZ-1	plaque count	2.04
Cc1cc(O)cc(S(=O)(=O)c2cccc(N)c2C#N)c1	-	RT-G190A	HeLa + HELA CD4+	β-galactosidase	10.5
Cc1cn([C@H]2C[C@H](N=[N+]=[N-])[C@@H](CO)O2)c(=O)[nH]c1=O	-	INTG-S153 N155S	-	-	1
CCc1c(Sc2ccccn2)n(COCc2ccccc2)c(=O)[nH]c1=O	NL4-3	RT-Y188C	CEM + CEM-SS	cytopathic effect / XTT	133
CCc1cc(NCc2nc3c(Cl)ccc(Cl)c3o2)c(=O)[nH]c1C	NL4-3	RT-L100I	MT-4	p24	2
Cc1ccc(-n2c(C)nnc2SCC(=O)Nc2ccccc2C(F)(F)F)cc1	NL4-3	RT-K103N Y181C	HeLa + HeLa-JC53	luciferase	>1429
C/C=C/CSc1cc(NC(=S)c2ccsc2C)ccc1Cl	UC781-R (RT-Y181C)	RT-Y181C	CEM + CEM-SS	cytopathic effect / XTT	26.7
Cc1ccnc2c1NC(=O)c1cccnc1N2C1CC1	HXB2	RT-K103N	MAGI (CCR5) + MAGI	β-galactosidase	55
Clc1nc(Cl)c2[nH]cnc2n1	-	RT-P157S	CD4+HELA + HeLa	p24	0.409
Nc1ccn([C@@H]2CO[C@H](CO)S2)c(=O)n1	HXB2D (M1841I)	RT-M184I	CBMC	RT activity	1
Cc1cc(Cl)cc(S(=O)(=O)c2cccc(N)c2C#N)c1	-	RT-Y188C	HeLa + HELA CD4+	β-galactosidase	189
O=c1[nH]cnc2c1ncn2[C@H]1CC[C@@H](CO)O1	RT-T69G K103N	1(T69G+K103N)	MT-2	p24	2.1
Cc1c(Sc2ccccc2)n(COCCO)c(=O)[nH]c1=O	IIIB HEPT-resistant (RT P236L)	RT-P236L	CEM + CEM-SS	cytopathic effect / XTT	>18
C#C[C@@]1(CO)C=C[C@H](n2cc(C)c(=O)[nH]c2=O)O1	HXB2	RT-Y181C	MAGI (CCR5) + MAGI	β-galactosidase	1
CCCc1cc(=O)oc2c3c(c4c(c12)OC(C)(C)C=C4)O[C@H](C)[C@@H](C)[C@@H]3O	IIIB	RT-Y181C	CEM + CEM-SS	cytopathic effect / XTT	0.1
CCN(c1nc(F)ccc1NC(C)(C)C)C1CCN(C(=O)c2cc3cc(NC(=O)N4CCN(C)CC4)ccc3[nH]2)CC1	IIIB	I401T R409K D437N	MT-2	p24 / ELISA	1.5
Cc1cc(S(N)(=O)=O)ccc1NC(=O)COc1ccc(Cl)cc1C(=O)c1cc(Cl)cc(C#N)c1	NNRTI-resistant (RT G190A)	RT-G190A	MAGI	β-galactosidase	1.7
Cc1cc(Br)cc(S(=O)(=O)c2cccc(N)c2C#N)c1	-	RT-E138K	HeLa + HELA CD4+	β-galactosidase	1.55
Nc1ccn([C@@H]2CO[C@H](CO)S2)c(=O)n1	RF	RT-K65R	C8166	p24	1.27
Cc1ccnc2c1NC(=O)c1cccnc1N2C1CC1	RTMC (RT-Y181C)	RT-D67N K70R Y181C T215Y K219Q	HT4 + HT4 LacZ-1	plaque count	93.3
COc1cc(C(F)(F)F)cc(S(=O)(=O)c2cccc(N)c2C#N)c1	-	RT-Y188C	HeLa + HELA CD4+	β-galactosidase	21.4
CC(C)=CCN1c2cc(Cl)cc3[nH]c(=S)n(c23)C[C@@H]1C	-	RT-K70R K101E	MT-4	-	15
Cc1occc1C(=S)Nc1ccc(Cl)c(/C=N/OC(C)(C)C)c1	UC781-R (RT-Y181C)	RT-Y181C	CEM + CEM-SS	cytopathic effect / XTT	4.5
O=C1Nc2ccc(Cl)cc2[C@@](C#CC2CC2)(C(F)(F)F)N1	-	RT-K103N P225H	-	-	36.5
Nc1ccn([C@H]2CC[C@@H](CO)O2)c(=O)n1	HXB2	RT-L74V	CD4+HELA + HeLa	plaque count	18.3
CC(C)c1c(COC(N)=O)cn(Cc2ccncc2)c1Sc1cc(Cl)cc(Cl)c1	-	RT-Y181C	C8166	p24	<66.7
Cc1cn([C@H]2C[C@H](N=[N+]=[N-])[C@@H](CO)O2)c(=O)[nH]c1=O	P026B (RT D67N K70R T215Y)	RT-D67N K70R T215Y	HT4 + HT4-6C	plaque count	280
CCOP(=O)(COc1ccc(C[C@H](NC(=O)O[C@H]2CO[C@H]3OCC[C@H]32)[C@H](O)CN(CC(C)C)S(=O)(=O)c2ccc(OC)cc2)cc1)OCC	IIIB	I401T	MT-2	p24 / ELISA	1.4
Cc1ccc(NC(=O)CSc2nnc(C)n2-c2ccccc2)c(Br)c1	NL4-3	RT-K103N Y181C	HeLa + HeLa-JC53	luciferase	13
O=c1[nH]cnc2c1ncn2[C@H]1CC[C@@H](CO)O1	HXB2D (RT-M184V)	RT-M184V	CBMC	p24	2.42
Cc1cn([C@H]2C[C@H](N=[N+]=[N-])[C@@H](CO)O2)c(=O)[nH]c1=O	UC82-R (RT-Y181C)	RT-Y181C	CEM + CEM-SS	cytopathic effect / XTT	1
Nc1ccn([C@H]2CC[C@@H](CO)O2)c(=O)n1	M184V(RT-M184V)	RT-M184V	MT-2	p24	3.7
O=C1O[C@H]2[C@@H]3OC(=O)c4cc(O)c(O)c(O)c4-c4c(cc(O)c(O)c4O)C(=O)OC[C@H]2O[C@@H](OC(=O)c2cc(O)c(O)c(O)c2)[C@@H]3OC(=O)c2cc(O)c(O)c3c2[C@@H]2C1=CC(=O)[C@](O)(O3)C2(O)O	NRTI resistant (RT K65R M184V) ARP1006	RT-K65R M184V	MAGI	-	3.24
Cc1cn([C@H]2C[C@H](N=[N+]=[N-])[C@@H](CO)O2)c(=O)[nH]c1=O	Diphenyl sulfone-resistant (RT-Y181C)	RT-Y181C	CEM + CEM-SS	XTT	0.2
O=c1[nH]cnc2c1ncn2[C@@H]1O[C@H](CO)C[C@@H]1F	L214F(RT-L214F)	RT-L214F	MT-2	p24	1.5
CC(C)(C)C(=O)c1sc(C(=O)NCCc2ccccc2)c(O)c1O	-	INTG-S153Y	-	-	2
O=c1[nH]cnc2c1ncn2[C@H]1CC[C@@H](CO)O1	IIIB 3TC (RT-M184V)	RT-M184V	MT-4	p24	4
Nc1ccn([C@H]2CC[C@@H](CO)O2)c(=O)n1	-	RT-K103N	MT-2	p24	1.3
Cc1ccnc2c1NC(=O)c1cccnc1N2C1CC1	NL4-3 (RT K103N)	RT-K103N	CEM + CEM-SS	cytopathic effect / XTT	>100
Fc1cccc(F)c1C1SCc2nc3ccccc3n21	Costatolide-resistant (RT L100I T139I)	RT-L100I T139I	CEM + CEM-SS	XTT	>27.6
Nc1nc(=O)n([C@@H]2CS[C@H](CO)O2)cc1F	HXB2	RT-M184I	HELA/CD4 + HELA CD4+	plaque count	88.5
Nc1ncnc2c1ncn2[C@@H]1O[C@H](CO)C[C@@H]1F	T215Y(RT-T215Y)	RT-T215Y	MT-2	p24	0.9
CCc1cc([C@](C#CC2CC2)(OCc2ccccc2)C(F)(F)F)c(=O)[nH]c1C	-	RT-K103N V108I	-	-	26.2
Cc1cn([C@H]2C=C[C@@H](CO)O2)c(=O)[nH]c1=O	RTMC (RT-V 75A)	RT-V75A	CD4+HELA + HeLa	plaque count	3.11
NS(=O)(=O)c1ccc(NC(=O)CSc2nnc(C(F)(F)F)n2-c2cccc3ccccc23)c(Cl)c1	NL4-3	RT-Y188L	HeLa + HeLa-JC53	luciferase	98
CC(C)[C@H](NC(=O)c1ccc2ccccc2n1)C(=O)N[C@@H](Cc1ccccc1)[C@H](O)CN1CC[C@@H](SCc2cccnc2)C[C@H]1C(=O)NC(C)(C)C	BILA1906-resistant (PR V32I A71V)	PR-V32I A71V	C8166	p24	3
Cc1cn([C@H]2C[C@H](N=[N+]=[N-])[C@@H](CO)O2)c(=O)[nH]c1=O	NL4-3	RT-Y181C	CEM + CEM-SS	cytopathic effect / XTT	10
O=C(NCc1ccc(F)cc1)c1nc(N2CCCCS2(=O)=O)c2cccnc2c1O	-	INTG-S153Y	-	-	2
Cc1cn([C@H]2C[C@H](N=[N+]=[N-])[C@@H](CO)O2)c(=O)[nH]c1=O	BaL	RT-P236L	Macrophage + Monocytes/macrophages	p24	3
Cc1cn([C@H]2C[C@H](N=[N+]=[N-])[C@@H](CO)O2)c(=O)[nH]c1=O	Site-directed mutant	RT-K65R Y115F	MT-2	cytopathic effect / XTT	1.4
Nc1ncnc2c1ncn2CCOCP(=O)(O)O	RT F77L/F116Y/Q151M	RT-F77L F116Y Q151M	MT-2	p24	1.4
Nc1nc(NC2CC2)c2ncn([C@H]3C=C[C@@H](CO)C3)c2n1	Site-directed mutant	RT-K65R Y115F	MT-2	cytopathic effect / XTT	>8
Nc1nc(=O)n([C@@H]2CS[C@H](CO)O2)cc1F	RTMN(184) (RT M41L M184V T215Y)	RT-M41L M184V 215Y	HT4 + HT4 LacZ-1	plaque count	>5560
Nc1ccn([C@H]2CC[C@@H](CO)O2)c(=O)n1	HXB2	RT-M184I	HELA/CD4 + HELA CD4+	plaque count	0.952
Cc1cn([C@H]2C[C@H](N=[N+]=[N-])[C@@H](CO)O2)c(=O)[nH]c1=O	RR/Q184 (RT M41L D67N K70R T215Y M184V)	RT-M41L D67N K70R M184V T215Y	HT4LACZ-1 + HT4 LacZ-1	plaque count	3.5
Cc1nnc(SCC(=O)Nc2ccccc2Br)n1-c1cccc2ccccc12	NL4-3	RT-Y188L	HeLa + HeLa-JC53	luciferase	360
Cc1cc(S(N)(=O)=O)ncc1NC(=O)COc1ccc(Cl)cc1C(=O)c1cc(Cl)cc(C#N)c1	HXB2	RT-Y181C	HeLa + HeLa-MAGI	β-galactosidase	1

A second listing of 3 rows from above:

structure	strain	changes	cells	read by	result
Cc1ccc(NC(=O)CSc2nnc(C)n2-c2ccccc2)c(Br)c1	NL4-3	RT-K103N Y181C	HeLa + HeLa-JC53	luciferase	13
Cc1ccnc2c1NC(=O)c1cccnc1N2C1CC1	HXB2	RT-K103N	MAGI (CCR5) + MAGI	β-galactosidase	55
Clc1nc(Cl)c2[nH]cnc2n1	-	RT-P157S	CD4+HELA + HeLa	p24	0.409